Pooled drug test results. Numbers come from NIAID ChemDB, via PubChem.

Shared fields: tests in culture

An empty or dashed field is not shown.

compound,species,strain or isolate,dose,read-out,method,result
OC(CCn1ccnc1)c1cccc(C(O)c2ccc(Cl)cc2)c1,Candida guilliermondii,RTCC 1377,-,MIC,broth dilution,>64 µg/mL
COc1ccc(/C=N/O)cc1,Candida famata,-,-,MIC,-,6620 µM
CCC(C)CC(C)CCCCCCCCC(=O)N[C@H]1C[C@@H](O)[C@H](NCCN)NC(=O)[C@@H]2[C@@H](O)CCN2C(=O)[C@H]([C@H](O)CCN)NC(=O)[C@H]([C@H](O)[C@@H](O)c2ccc(O)cc2)NC(=O)[C@@H]2C[C@@H](O)CN2C(=O)[C@H]([C@@H](C)O)NC1=O,Candida glabrata,8655,-,MIC,broth dilution,4 µg/mL
COc1ccc(C(c2ccc(OC)cc2)n2cncn2)cc1,Candida dubliniensis,-,-,MFC,broth dilution,>256 µg/mL
C=CCc1ccc(O)c(OC)c1,Candida glabrata,3147,-,MIC90,turbidity,475 µg/mL
CC1(C)O[C@H]2[C@H](O)[C@@H](N=[N+]=[N-])C=C(c3ccc(C=O)cc3)[C@H]2O1,Candida tropicalis,C 131,125 µg/mL,inhibition,broth dilution / turbidity,84.05%
CC(C)(O)c1cn(-c2ccc3ccccc3c2)nn1,Candida albicans,URM 4987,2048 µg/mL,inhibition,broth dilution,0%
O/N=C\c1ccc(F)cc1,Candida famata,-,-,MIC100,-,3600 µM
O=C(c1ccccc1)C(c1ccccc1)n1ccnc1,Candida dubliniensis,-,-,MIC90,agar,128 µg/mL
CC(C)(O)c1cn(-c2cccc3ccccc23)nn1,Candida parapsilosis,ATCC 22019,2048 µg/mL,inhibition,broth dilution,0%
C[C@@H]1CC(=O)N(CCc2ccccc2)C1=O,Candida lusitaniae,CCC 134-2000,-,MIC,broth dilution / turbidity,62.5 µg/mL
O=C(NN=Cc1ccc(Cl)cc1)c1snnc1C(F)(F)F,Candida rugosa,NCIM 3462,150 µg/mL,zone,agar diffusion / agar,0 mm
c1ccc(C(c2ccccc2)n2cncn2)cc1,Candida parapsilosis,-,-,MIC90,agar,64 µg/mL
CC(=NNC(=O)c1snnc1C(F)(F)F)c1ccc(Br)cc1Br,Candida rugosa,NCIM 3462,150 µg/mL,zone,agar diffusion / agar,0 mm
NCCCC[C@H](NC(=O)[C@H](CCCN=C(N)N)NC(=O)[C@H](CCCN=C(N)N)NC(=O)[C@H](CCCCN)NC(=O)[C@H](CCCCN)NC(=O)[C@@H](N)CCCCN)C(=O)N[C@@H](CCCN=C(N)N)C(=O)O,Candida albicans,ATCC 10231,200 µM,inhibition,-,43%
CC1CC(=O)N(c2ccc(F)cc2F)C1=O,Candida lusitaniae,CCC 134-2000,-,MIC,broth dilution / turbidity,250 µg/mL
O=C(CCn1ccnc1)c1ccc(-c2ccccc2)cc1,Candida guilliermondii,RTCC1248,-,MIC,broth dilution,1 µg/mL
c1ccc(C(c2ccccc2)n2ccnc2)cc1,Candida dubliniensis,-,-,MFC,broth dilution,1 µg/mL
C[C@@H](c1ncncc1F)[C@](O)(Cn1cncn1)c1ccc(F)cc1F,Candida spp.,Fluconazole-resistant,-,MIC50,broth dilution,>4 µg/mL
CC1C(=O)N(CCc2ccccc2)C(=O)C1C,Candida lusitaniae,CCC 134-2000,-,MIC,broth dilution / turbidity,125 µg/mL
Cc1ccc(-n2cc(C(C)(C)O)nn2)cc1C,Candida albicans,URM 4260,2048 µg/mL,inhibition,broth dilution,0%
Clc1ccc(C(c2ccccc2)n2cncn2)cc1,Candida parapsilosis,-,-,MFC,broth dilution,>256 µg/mL
Cc1ccc(C(O)c2cccc(C(=O)CCn3ccnc3)c2)cc1,Candida guilliermondii,RTCC1248,-,MIC,broth dilution,64 µg/mL
CCCCCOc1ccc(-c2cc(-c3ccc(C(=O)N[C@H]4C[C@@H](O)[C@@H](O)NC(=O)[C@@H]5[C@@H](O)[C@@H](C)CN5C(=O)[C@H]([C@H](O)CC(N)=O)NC(=O)[C@H]([C@H](O)[C@@H](O)c5ccc(O)c(OS(=O)(=O)O)c5)NC(=O)[C@@H]5C[C@@H](O)CN5C(=O)[C@H]([C@@H](C)O)NC4=O)cc3)no2)cc1,Candida spp.,fluconazole-sensitive,-,MIC50,broth dilution,0.016 µg/mL
C[C@@H]1CC(=O)N(CCCCc2ccccc2)C1=O,Candida lusitaniae,CCC 134-2000,-,MIC,broth dilution / turbidity,125 µg/mL
O=C1C2=C(OC(CI)C2)C(=O)c2ccccc21,Candida tropicalis,Clinical isolate,-,MIC,broth dilution,32 µg/mL
O=C(NN=Cc1ccc(Br)cc1)c1snnc1C(F)(F)F,Candida rugosa,NCIM 3462,100 µg/mL,zone,agar diffusion / agar,0 mm
COc1ccc(/C=N\O)cc1,Candida lipolytica,-,-,MIC100,broth dilution,6620 µM
CN(C)c1ccc(C=NNC(=O)c2snnc2C(F)(F)F)cc1,Candida rugosa,NCIM 3462,150 µg/mL,zone,agar diffusion / agar,0 mm
OC(CCn1ccnc1)c1ccc(Br)cc1,Candida kefyr,RTCC 1019,-,MIC,broth dilution,>64 µg/mL
O/N=C\c1ccccc1O,Candida lipolytica,-,-,MIC,-,1800 µM
C[C@@H](c1ncncc1F)[C@](O)(Cn1cncn1)c1ccc(F)cc1F,Candida tropicalis,8684,-,MIC,broth dilution,0.015 µg/mL
C/C(=N/O)C(Cl)(Cl)Cl,Candida famata,-,-,MIC,-,3220 µM
CC(=NNC(=O)c1snnc1C(F)(F)F)c1ccc([N+](=O)[O-])cc1,Candida rugosa,NCIM 3462,100 µg/mL,zone,agar diffusion / agar,0 mm
CC(C)(O)c1cn(-c2ccc([N+](=O)[O-])cc2)nn1,Candida parapsilosis,URM 4804,2048 µg/mL,inhibition,broth dilution,0%
O/N=C\c1ccc(O)cc1,Candida lipolytica,-,-,MFC,broth dilution,>7290 µM

2 of the rows above, restated:

compound	species	strain or isolate	dose	read-out	method	result
O=C(c1ccccc1)C(c1ccccc1)n1ccnc1	Candida dubliniensis	-	-	MIC90	agar	128 µg/mL
c1ccc(C(c2ccccc2)n2cncn2)cc1	Candida parapsilosis	-	-	MIC90	agar	64 µg/mL

Zone: diameter of growth inhibition. Conditions beyond the fields shown may differ between rows. Percent inhibition refers to the dose given; in toxicity tests it is the harm to the cells. MIC50, MIC90 and the like: level of inhibition, or share of isolates inhibited.